Measured values from several laboratories, pooled; numbers as filed in NIAID ChemDB.

Common to all: growth or infection tests; organism: Mycobacterium avium complex

Rows are shuffled and stem from different studies. A number after MIC or MFC names an inhibition level or a share of isolates. An empty or dashed field is not shown.

structure | read by | strain | endpoint | value
O=C(O)c1cn(C2CC2)c2c(F)c(N3CC4CCCC(C3)N4)c(F)cc2c1=O |  | 1760694 | MIC | 4 µg/mL
CO[C@H]1/C=C/O[C@@]2(C)Oc3c(C)c(O)c4c(O)c(c(/C=N/N5CCN(C)CC5)c(O)c4c3C2=O)NC(=O)/C(C)=C\C=C\[C@H](C)[C@H](O)[C@@H](C)[C@@H](O)[C@@H](C)[C@H](OC(C)=O)[C@@H]1C |  | 1171 | MIC | 2 µg/mL
CO[C@H]1/C=C/O[C@@]2(C)Oc3c(C)c(O)c4c(O)c(c(/C=N/N5CCN(C)CC5)c(O)c4c3C2=O)NC(=O)/C(C)=C\C=C\[C@H](C)[C@H](O)[C@@H](C)[C@@H](O)[C@@H](C)[C@H](OC(C)=O)[C@@H]1C |  | 1110/HIV- | MIC | <2 µg/mL
NCCC[C@H](N)CC(=O)N[C@H]1CNC(=O)[C@H]([C@H]2C[C@H](O)NC(N)=N2)NC(=O)/C(=C/NC(N)=O)NC(=O)[C@H](CO)NC(=O)[C@H](CO)NC1=O |  | TMC 1411 | MIC | 1.56 µg/mL
CC[C@@H](CO)NCCN[C@@H](CC)CO |  | 3350-4 | MBC | 30 µg/mL
CO[C@H]1/C=C/O[C@@]2(C)Oc3c(C)c(O)c4c(O)c(c(/C=N/N5CCN(C/C=C/c6ccccc6)CC5)c(O)c4c3C2=O)NC(=O)/C(C)=C\C=C\[C@H](C)[C@H](O)[C@@H](C)[C@@H](O)[C@@H](C)[C@H](OC(C)=O)[C@@H]1C |  | CH5 | MIC | 0.06 µg/mL
NCC[C@H](O)C(=O)N[C@@H]1C[C@H](N)[C@@H](O[C@H]2O[C@H](CN)[C@@H](O)[C@H](O)[C@H]2O)[C@H](O)[C@H]1O[C@H]1O[C@H](CO)[C@@H](O)[C@H](N)[C@H]1O |  | 3220 | MIC | 32 µg/mL
CNC1CCN(c2c(F)cc3c(=O)c(C(=O)O)cn(C4CC4)c3c2F)C1 |  | 1172733 | MIC | 2 µg/mL
CN[C@@H]1[C@@H](O)[C@@H](O[C@@H]2[C@@H](O)[C@H](O[C@H]3O[C@H](CN)CC[C@H]3N)[C@@H](N)C[C@H]2N)OC[C@]1(C)O |  | TMC 1406 | MIC | <0.01 µg/mL
NC[C@@H]1O[C@H](O[C@H]2[C@@H](O)[C@H](O[C@@H]3[C@@H](O)[C@H](N)C[C@H](N)[C@H]3O[C@H]3O[C@H](CO)[C@@H](O)[C@H](O)[C@H]3N)O[C@@H]2CO)[C@H](N)[C@@H](O)[C@@H]1O |  | LR25/HIV+ | MIC | 1.56 µg/mL
CN1CC2CCC1CN2c1c(F)cc2c(=O)c(C(=O)O)cn(C3CC3)c2c1F |  | 1760694 | MIC | 8 µg/mL
NCCC(O)C(N)CC(=O)NC1CNC(=O)C(C2CCN=C(N)N2)NC(=O)/C(=C/NC(N)=O)NC(=O)C(CO)NC(=O)C(CO)NC1=O |  | 13016 (serotype 4) | MIC | 6.25 µg/mL
NC[C@H]1O[C@H](O[C@H]2[C@H](O)[C@@H](O[C@H]3O[C@H](CO)[C@@H](O)[C@H](N)[C@H]3O)[C@H](N)C[C@@H]2N)[C@H](O)[C@@H](O)[C@@H]1O |  | Isolate C-46 | MIC | 200 µg/mL
O=C(O)c1cn(C2CC2)c2c(F)c(N3CCN4CCC3C4)c(F)cc2c1=O |  | 1172733 | MIC | 4 µg/mL
C[C@@H]1CN(c2c(F)c(N)c3c(=O)c(C(=O)O)cn(C4CC4)c3c2F)C[C@H](C)N1 | broth dilution | 25 | MIC | 0.12 µg/mL
CC[C@@H](CO)NCCN[C@@H](CC)CO |  | 13011 (serotype 16) | MIC | 1.6 µg/mL
NC[C@H]1O[C@H](O[C@H]2[C@H](O)[C@@H](O[C@H]3O[C@H](CO)[C@@H](O)[C@H](N)[C@H]3O)[C@H](N)C[C@@H]2N)[C@H](O)[C@@H](O)[C@@H]1O |  | N-269 (HIV-) | MIC | 4 µg/mL
CC[C@@H](CO)NCCN[C@@H](CC)CO |  | 1168 | MIC | 16 µg/mL
NC[C@@H]1O[C@H](O[C@H]2[C@@H](O)[C@H](O[C@@H]3[C@@H](O)[C@H](N)C[C@H](N)[C@H]3O[C@H]3O[C@H](CO)[C@@H](O)[C@H](O)[C@H]3N)O[C@@H]2CO)[C@H](N)[C@@H](O)[C@@H]1O |  | Isolate 49 | MIC | 25 µg/mL
NCC[C@H](O)C(=O)N[C@@H]1C[C@H](N)[C@@H](O[C@H]2O[C@H](CN)[C@@H](O)[C@H](O)[C@H]2O)[C@H](O)[C@H]1O[C@H]1O[C@H](CO)[C@@H](O)[C@H](N)[C@H]1O |  | 541/HIV+ | MIC | <1.25 µg/mL
CN1CCN(c2cc3c(cc2F)c(=O)c(C(=O)O)cn3-c2ccc(F)cc2)CC1 |  | 3218 | MIC | 16 µg/mL
CN(C)CC1CCN(c2c(F)cc3c(=O)c(C(=O)O)cn(C4CC4)c3c2F)C1 |  | 1988557 | MIC | 0.5 µg/mL
CC[C@@H](CO)NCCN[C@@H](CC)CO |  | N-979 (HIV+) | MIC | 1 µg/mL
CC1CCN(c2c(F)cc3c(=O)c(C(=O)O)cn(C4CC4)c3c2F)C1 |  | 14 strains | MIC50 | 2 µg/mL
NCC[C@H](O)C(=O)N[C@@H]1C[C@H](N)[C@@H](O[C@H]2O[C@H](CN)[C@@H](O)[C@H](O)[C@H]2O)[C@H](O)[C@H]1O[C@H]1O[C@H](CO)[C@@H](O)[C@H](N)[C@H]1O |  | Isolate 122 | MIC | 50 µg/mL
O=C(O)c1cn(C2CC2)c2c(F)c(N3CCC(n4ccnc4)C3)c(F)cc2c1=O |  | 1760694 | MIC | 16 µg/mL
NCC[C@H](O)C(=O)N[C@@H]1C[C@H](N)[C@@H](O[C@H]2O[C@H](CN)[C@@H](O)[C@H](O)[C@H]2O)[C@H](O)[C@H]1O[C@H]1O[C@H](CO)[C@@H](O)[C@H](N)[C@H]1O |  | 1423/HIV+ | MIC | 2 µg/mL
CCNCC1CN(c2c(F)cc3c(=O)c(C(=O)O)cn(C4CC4)c3c2F)CC1CNCC |  | 1172733 | MIC | 32 µg/mL
NC[C@H]1O[C@H](O[C@H]2[C@H](O)[C@@H](O[C@H]3O[C@H](CO)[C@@H](O)[C@H](N)[C@H]3O)[C@H](N)C[C@@H]2N)[C@H](N)[C@@H](O)[C@@H]1O |  | TMC 1403 | MIC | 0.39 µg/mL
CC1COc2c(N3CCN(C)CC3)c(F)cc3c(=O)c(C(=O)O)cn1c23 |  | Isolate 861589 | MIC | 20 µg/mL
CC[C@H]1OC(=O)[C@H](C)[C@@H](O[C@H]2C[C@@](C)(OC)[C@@H](O)[C@H](C)O2)[C@H](C)[C@@H](O[C@@H]2O[C@H](C)C[C@H](N(C)C)[C@H]2O)[C@](C)(O)C[C@@H](C)C(=O)[C@H](C)[C@@H](O)[C@]1(C)O |  | 3213 | MIC | 64 µg/mL
CCn1cc(C(=O)O)c(=O)c2cc(F)c(N3CCN(C)CC3)cc21 |  | CIPT 14031001 | MIC | 10 µg/mL
COC1CCN(c2c(F)cc3c(=O)c(C(=O)O)cn(C4CC4)c3c2F)C1 |  | 1988557 | MIC | 1 µg/mL

The first 4 rows once more:

{"structure": "O=C(O)c1cn(C2CC2)c2c(F)c(N3CC4CCCC(C3)N4)c(F)cc2c1=O", "strain": "1760694", "endpoint": "MIC", "value": "4 µg/mL"}
{"structure": "CO[C@H]1/C=C/O[C@@]2(C)Oc3c(C)c(O)c4c(O)c(c(/C=N/N5CCN(C)CC5)c(O)c4c3C2=O)NC(=O)/C(C)=C\\C=C\\[C@H](C)[C@H](O)[C@@H](C)[C@@H](O)[C@@H](C)[C@H](OC(C)=O)[C@@H]1C", "strain": "1171", "endpoint": "MIC", "value": "2 µg/mL"}
{"structure": "CO[C@H]1/C=C/O[C@@]2(C)Oc3c(C)c(O)c4c(O)c(c(/C=N/N5CCN(C)CC5)c(O)c4c3C2=O)NC(=O)/C(C)=C\\C=C\\[C@H](C)[C@H](O)[C@@H](C)[C@@H](O)[C@@H](C)[C@H](OC(C)=O)[C@@H]1C", "strain": "1110/HIV-", "endpoint": "MIC", "value": "<2 µg/mL"}
{"structure": "NCCC[C@H](N)CC(=O)N[C@H]1CNC(=O)[C@H]([C@H]2C[C@H](O)NC(N)=N2)NC(=O)/C(=C/NC(N)=O)NC(=O)[C@H](CO)NC(=O)[C@H](CO)NC1=O", "strain": "TMC 1411", "endpoint": "MIC", "value": "1.56 µg/mL"}